The record followed here is patent US20080242870A1 (priority 2006, published 2008).

A short description of experiment [1]: Fluorescence response to phosphoryl esters.
Experiment [2] can be described thus: Luminescence titration with thionyl chloride.

As for “N,N′-bis(p-aminophenyl)-1,5-bis(p-tetraethyleneglycoloxy)phenyl)anthracene-2,3,6,7,-tetracarboxyl bisimide”, the fluorescence activation entry in experiment [1] (addition of dimethyl methylphosphonate, an unreactive phosphoryl ester) was “does not”; in experiment [1] (addition of reactive phosphoryl esters (e.g. phosphoryl chlorides)) it was “activates the fluorescence”. Further, in experiment [2] (increasing thionyl chloride concentration), the “fluorescence quantum yield, upper limit” value is reported as 0.15. This substance also came in with a fluorescence quantum yield in experiment [2] (no added thionyl chloride) of 0.
